Test results from ChEMBL document CHEMBL1255439 (2010).

Test system: Burkholderia pseudomallei
Assay: Antibacterial activity against Burkholderia pseudomallei 1026b infected in BALB/c mouse assessed as cure rate at 25 mg/kg, ip administered 6 hrs postinfection at 12 hrs interval for 3 days measured on day 3 in presence of IFN-gamma-harboring cationic liposome-DNA complex
Details: route intraperitoneal

## CC(C)(O/N=C(\C(=O)N[C@@H]1C(=O)N2C(C(=O)[O-])=C(C[n+]3ccccc3)CS[C@H]12)c1csc(N)n1)C(=O)O
  Activity: 40%
